According to PMC7949159, “Optimized binding of substituted quinoline ALLINIs within the HIV-1 integrase oligomer” (The Journal of Biological Chemistry, 2021):

Target: HIV-1 IN (full-length, His-tagged and FLAG-tagged) (Human immunodeficiency virus type 1 group M subtype B, UniProt P12497)
Assay: HTRF-based IN multimerization assay
Settings: read-out: In vitro IN multimerization EC50, average with SD of three independent experiments
Method: For biochemical studies, recombinant proteins 6xHis-tagged and FLAG-tagged full-length INs were expressed in E. coli and purified by column chromatography as previously described ([39]). The HTRF-based assay used to monitor inhibitor-induced aberrant multimerization of IN was performed as previously reported ([15], [19]). Briefly, two separate preparations of His-tagged and FLAG-tagged IN proteins were mixed in presence of increasing concentration of the test compounds and incubated for 2.5 h at room temperature. Anti-His6-XL665 and anti-FLAG-EuCryptate antibodies (Cisbio, Inc) were then added to the reaction and incubated at room temperature for 3 h. The IN multimerization HTRF signal was recorded using a PerkinElmer EnSpire multimode plate reader, and dose–response curves were fitted with a sigmoidal dose–response equation with Hill slope to determine the compound EC50 using Origin software (v9.7).

Structure (SMILES)	EC50 [µM]
CCOc1ccccc1-c1ccc2c(-c3ccc4c(c3)OCCO4)c(C(OC(C)(C)C)C(=O)O)c(C)nc2c1 (racemic)	0.06
COc1ccc(-c2ccc3c(-c4ccc5c(c4)OCCO5)c(C(OC(C)(C)C)C(=O)O)c(C)nc3c2)cc1 (racemic)	0.04
COc1cccc(-c2ccc3c(-c4ccc5c(c4)OCCO5)c(C(OC(C)(C)C)C(=O)O)c(C)nc3c2)c1 (racemic)	0.52
Cc1ccccc1-c1ccc2c(-c3ccc4c(c3)OCCO4)c(C(OC(C)(C)C)C(=O)O)c(C)nc2c1 (racemic)	0.06
Cc1nc2cc(-c3ccccc3)ccc2c(-c2ccc3c(c2)OCCO3)c1C(OC(C)(C)C)C(=O)O (racemic)	0.07
Cc1nc2cc(-c3ccccc3C(F)(F)F)ccc2c(-c2ccc3c(c2)OCCO3)c1C(OC(C)(C)C)C(=O)O (racemic)	0.14
Cc1nc2cc(-c3ccccc3Cl)ccc2c(-c2ccc3c(c2)OCCO3)c1C(OC(C)(C)C)C(=O)O (racemic)	0.11
Cc1nc2cc(-c3ccccc3OC(F)(F)F)ccc2c(-c2ccc3c(c2)OCCO3)c1C(OC(C)(C)C)C(=O)O (racemic)	0.12

System: noninfected cells
Assay: CyQUANT XTT Cell Viability cytotoxicity assay
Settings: not given
Method: The EC50 values were determined in single replication cycle as described previously ([17]). Briefly, HEK293T cells were transfected with pNL4-3.Luc.Env- and pHEF-VSV-G plasmids to produce respective viruses in the absence or presence of indicated concentrations of ALLINIs. The virus supernatants were collected 24 h after drug treatment, and p24 concentrations were determined by HIV-1 Gag p24 ELISA (ZeptoMetrix) following manufacturer’s protocol. The target cells were then infected with HIV-1 virions equivalent to 4 ng of HIV-1 p24, in the absence or presence of indicated concentrations of drugs. To measure EC50 values during the early replication stage, DMSO or the inhibitor was added to the target cells 60 min before infection. The cells were cultured for 48 h, and the cell extracts were prepared using reporter lysis buffer (Promega). Luciferase activity was determined using a commercially available kit (Promega). The cytotoxicity assays were performed on noninfected cells using the commercially available CyQUANT XTT Cell Viability Assay (Invitrogen, Inc) by following the manufacturer protocol. The dose–response curves were fitted with a sigmoidal dose–response equation with Hill slope to determine the compound IC50 and CC50 using Origin software (v9.7).

Structure (SMILES)	CC50 [µM]
Cc1nc2cc(-c3ccccc3)ccc2c(-c2ccc3c(c2)OCCO3)c1C(OC(C)(C)C)C(=O)O (racemic)	> 100
